# A weaker result is weaker than the reference pair of the same experiment. Protein sequences can lack the tags named with them.
# Target: T1, SauUSI (Staphylococcus aureus) (UniProt Q2FVC3)
# T1 sequence (looked up, limits assumed): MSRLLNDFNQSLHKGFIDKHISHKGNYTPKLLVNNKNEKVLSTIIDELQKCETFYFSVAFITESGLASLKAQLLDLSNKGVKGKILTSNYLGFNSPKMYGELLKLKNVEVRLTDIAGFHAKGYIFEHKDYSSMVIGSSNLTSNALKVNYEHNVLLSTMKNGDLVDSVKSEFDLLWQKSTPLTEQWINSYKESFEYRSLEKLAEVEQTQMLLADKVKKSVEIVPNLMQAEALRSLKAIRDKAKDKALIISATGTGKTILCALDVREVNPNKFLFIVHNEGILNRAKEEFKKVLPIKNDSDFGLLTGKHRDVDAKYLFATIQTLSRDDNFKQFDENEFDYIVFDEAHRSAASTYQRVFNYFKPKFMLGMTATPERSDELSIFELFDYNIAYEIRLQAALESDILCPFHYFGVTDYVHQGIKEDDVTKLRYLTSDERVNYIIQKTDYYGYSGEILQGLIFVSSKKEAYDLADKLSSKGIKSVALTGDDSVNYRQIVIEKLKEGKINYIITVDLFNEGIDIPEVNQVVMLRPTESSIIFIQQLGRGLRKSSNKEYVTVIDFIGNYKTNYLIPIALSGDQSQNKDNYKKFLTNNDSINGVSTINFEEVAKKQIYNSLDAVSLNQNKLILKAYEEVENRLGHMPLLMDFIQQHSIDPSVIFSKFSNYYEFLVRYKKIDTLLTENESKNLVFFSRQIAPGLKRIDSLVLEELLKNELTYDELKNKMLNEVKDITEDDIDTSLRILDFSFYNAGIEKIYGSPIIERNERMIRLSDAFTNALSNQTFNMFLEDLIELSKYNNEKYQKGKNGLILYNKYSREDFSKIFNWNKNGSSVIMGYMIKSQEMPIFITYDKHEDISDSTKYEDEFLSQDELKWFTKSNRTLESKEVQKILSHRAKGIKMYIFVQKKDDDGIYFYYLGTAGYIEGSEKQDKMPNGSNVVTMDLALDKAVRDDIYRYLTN
# Experiment: EMSA
# Settings: 250 nM DNA, shift first detected at 0.8 uM SauUSI (0.05-1.6 uM tested); Protein and DNA incubated 20 min on ice; 5% native PAGE, ethidium bromide stain; binding buffer, salt and pH not stated; recombinant protein; protein details: His-tag (HisTrap purified)
sequence,measurement,value
GCCGCGGATCCTTCACAAGACGATTACCGGCGCTGAAAGACCAGCATATGCAATTTGACT (double strand) [EMSA non-methylated 60 bp (non-specific DNA)],binding result,binds more weakly
